Laboratory results: PubChem BioAssay AID624099 (ICCB-Longwood, 2012)
Shown is one part, drawn at random, of about 21,000 deposited reagents. 497 of all reagents (2.4%) were called active. 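Higher z means weaker E2 silencing; only reporter increases were scored, and knock-downs that hurt cell survival may mask genuine repressor factors.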 Entries without a mark were called inactive.

Purpose: 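Knock-downs relieving repression by E2 of an HPV18 LCR luciferase reporter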 (primary screen)
Cell system: human C33A cervical carcinoma cells (HPV-negative) stably expressing BPV1 E2 and an HPV18 LCR luciferase reporter
Knock-down reagent: siRNA pool against human genes, 40 nM
Time to read-out: 72 h
Read-out: 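HPV18 LCR reporter light per well, converted to plate-wise z-scores that exclude control wells, and averaged over triplicate plates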
Scale: mean z-score and z-score: higher = stronger reporter signal, weaker E2 silencing
Call rule: 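Mean z ≥ 2 together with z ≥ 2 in two or more of the three replicates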

Target gene	mean z-score	z-score, replicate A	z-score, replicate B	z-score, replicate C
SSX3 (SSX family member 3)	1.06	0.95	1.15	1.09
FDFT1 (farnesyl-diphosphate farnesyltransferase 1)	1.96	1.43	1.69	2.77
C1orf74 (chromosome 1 open reading frame 74)	-0.87	-0.52	-0.88	-1.21
DLD (dihydrolipoamide dehydrogenase)	0	0.23	0.18	-0.4
HGD (homogentisate 1,2-dioxygenase)	-0.57	-0.77	-0.95	0.01
SLPI (secretory leukocyte peptidase inhibitor)	1.85	2.08	1.62	1.87
MRPL10 (mitochondrial ribosomal protein L10)	-1.55	-1.63	-1.43	-1.59
MTX2 (metaxin 2)	0.56	0.69	0.38	0.62
MAML2 (mastermind like transcriptional coactivator 2)	-0.48	-0.54	-0.58	-0.31
PTK6 (protein tyrosine kinase 6)	0.97	1.25	0.75	0.91
ST6GALNAC6 (ST6 N-acetylgalactosaminide alpha-2,6-sialyltransferase 6)	-0.81	-0.9	-0.94	-0.59
CTSE (cathepsin E)	-0.9	-0.71	-1.1	-0.88
CHRNA6 (cholinergic receptor nicotinic alpha 6 subunit)	0.82	0.75	1.03	0.68
MYO3B (myosin IIIB)	-0.05	0.19	-0.31	-0.02
TAF5 (TATA-box binding protein associated factor 5)	-1.44	-1.44	-1.5	-1.38

4 successive records already listed:
Target gene	mean z-score	z-score, replicate A	z-score, replicate B	z-score, replicate C
FDFT1 (farnesyl-diphosphate farnesyltransferase 1)	1.96	1.43	1.69	2.77
C1orf74 (chromosome 1 open reading frame 74)	-0.87	-0.52	-0.88	-1.21
DLD (dihydrolipoamide dehydrogenase)	0	0.23	0.18	-0.4
HGD (homogentisate 1,2-dioxygenase)	-0.57	-0.77	-0.95	0.01

The results go on:
Target gene	mean z-score	z-score, replicate A	z-score, replicate B	z-score, replicate C
RANBP9 (RAN binding protein 9)	-0.96	-0.87	-1.02	-1
VSX2 (visual system homeobox 2)	0.02	-0.02	0.1	-0.03
RXFP4 (relaxin family peptide/INSL5 receptor 4)	0.49	0.54	0.45	0.47
FBXL19-AS1 (FBXL19 antisense RNA 1)	1.57	1.48	1.44	1.8
TMEM161B (transmembrane protein 161B)	-0.14	-0.08	-0.55	0.22
ANTXRL (ANTXR like)	0.16	0.14	0.29	0.04
DHH (desert hedgehog signaling molecule)	0.08	0.61	-0.12	-0.25
KIF13B (kinesin family member 13B)	0.52	0.51	0.41	0.66
SLC41A2	-0.05	0.13	-0.14	-0.13
ACBD5 (acyl-CoA binding domain containing 5)	-0.23	-0.35	-0.15	-0.19
YPEL1 (yippee like 1)	0.1	-0.01	0.22	0.1
GFOD2 (Gfo/Idh/MocA-like oxidoreductase domain containing 2)	-0.49	-0.47	-0.66	-0.36
LOC388823 (retired record)	-0.72	-0.93	-0.91	-0.32
DTX3L (deltex E3 ubiquitin ligase 3L)	0.13	0.53	-0.25	0.09
GLYATL3 (glycine-N-acyltransferase like 3)	0.52	0.29	0.53	0.75
CLMP (CXADR like cell adhesion molecule)	-0.79	-1.27	-0.6	-0.49
SMIM17 (small integral membrane protein 17)	-0.75	-0.91	-0.61	-0.73
BTBD2 (BTB domain containing 2)	0.09	0.55	-0.09	-0.2
ATL2 (atlastin GTPase 2)	1.62	1.44	1.92	1.5
IQCH (IQ motif containing H)	-0.42	-0.3	-0.73	-0.24
LOC389330 (retired record)	2.12 (active)	2.27	2.03	2.05
NOL4 (nucleolar protein 4)	-0.51	-0.58	-0.4	-0.54
AGPAT5 (1-acylglycerol-3-phosphate O-acyltransferase 5)	-0.12	-0.29	-0.23	0.16
FBXO31 (F-box protein 31)	-0.92	-0.51	-1.17	-1.08
